Data: patent US11052151B2, “Diagnosis and treatment of autism spectrum disorder” (California Institute of Technology, priority 2012, dated 2021)

Test: Metabolomics screening (GC/LC-MS) of sera after B. fragilis treatment of MIA offspring
Format: in vivo, mice
Conditions: poly(I:C)+B. fragilis offspring relative to saline controls, p<0.05

Point of comparison: `O=c1cc[nH]c(=O)[nH]1` [uracil], “I:C-Bfrag / CON (fold change of serum metabolite)” value 0.64. Against it:
- Oc1nc(O)c2nc(O)[nH]c2n1 [urate] — higher, 0.84
- CC(C)C(=O)O[C@H](CC(=O)[O-])C[N+](C)(C)C [isobutyrylcarnitine] — higher, 0.68
- TDTEDKGEFLSEGGGVR (ASD-related metabolite) — higher, 3.46
- CCCCC/C=C\C/C=C\C/C=C\C/C=C\C/C=C\CCC(=O)O [docosapentaenoate (n6 DPA; 22:5n6)] — higher, 0.70
- O=C(O)/C=C/C(=O)O [fumarate] — the same, 0.64
- C[N+](C)(C)CC(=O)CC(=O)[O-] [3-dehydrocarnitine] — higher, 0.71
- CCCCC/C=C\C[C@H](O)/C=C/C=C\C/C=C\CCCC(=O)O [12-HETE] — lower, 0.57
- O=C(O)CCCCCCCCCCCCCCCCC(=O)O [octadecanedioate] — lower, 0.53
- CCCCC(=O)O[C@H](CC(=O)[O-])C[N+](C)(C)C [valerylcarnitine] — lower, 0.56
- O=C(O)CCC(O)C(=O)O (stereo not drawn) [2-hydroxyglutarate] — higher, 0.83
- CCC(C)C(=O)OC(CC(=O)[O-])C[N+](C)(C)C (stereo not drawn) [2-methylbutyroylcarnitine] — higher, 0.66
- N=C(N)NCCCC(=O)O [4-guanidinobutanoate] — higher, 0.65
- CCCCCCCCCCCCCCCCCC(=O)OC[C@@H](O)COP(=O)(O)OC1[C@H](O)[C@H](O)C(O)[C@H](O)[C@H]1O (stereo partly drawn) [1-stearoylglycerophosphoinositol] — higher, 0.66
- O=C(O)C(O)Cc1ccc(O)cc1 (stereo not drawn) [3-(4-hydroxyphenyl)lactate] — higher, 0.81
- CC(C)C(=O)C(=O)O [3-methyl-2-oxobutyrate] — higher, 0.68
- CCCCCCCC(O)CC(=O)O (stereo not drawn) [3-hydroxydecanoate] — lower, 0.51
- CCCCC/C=C\CC(O)C(O)CCCCCCCC(=O)O (stereo not drawn) [9,10-hydroxyoctadec-12(Z)-enoic acid] — lower, 0.48
- O=c1[nH]cnc2nc[nH]c12 [hypoxanthine] — higher, 8.55
- O=C[C@H](O)[C@H](O)[C@H](O)CO [ribose] — higher, 1.97
- N[C@@H](Cc1ccc(O)cc1)C(=O)O [tyrosine] — higher, 0.85
- OC[C@H]1O[C@@H](n2cnc3c(O)ncnc32)[C@H](O)[C@@H]1O [inosine] — higher, 8.36
- O=C(O)CCCCCCCCCCC(=O)O [dodecanedioate] — higher, 0.65
- CCCCC/C=C\C/C=C\C/C=C\C/C=C\CCCCCC(=O)O [adrenate] — higher, 0.75
- O=C(O)CCCCCCCCCCCCCCC(=O)O [hexadecanedioate] — lower, 0.54
- Nc1ncnc2c1ncn2C1OC(COP(=O)(O)O)C(O)C1O (stereo not drawn) [adenosine 5′-monophosphate (AMP)] — higher, 20.92
- O=C(CO)[C@H](O)[C@H](O)CO [ribulose] — higher, 0.68
- OC1C(O)C(O)C(O)C(O)C1O (stereo not drawn) [chiro-inositol] — higher, 0.66
- dihomo-linolenate (20:3n3 or n6) — higher, 0.69
- CCCCCC/C=C\CCCCCCCC(=O)O [palmitoleate (16:1n7)] — higher, 0.70
- CCCCC[C@H](O)[C@@H](O)C/C=C\CCCCCCCC(=O)O [12,13-hydroxyoctadec-9(Z)-enoate] — lower, 0.54
- CCCCC/C=C\C/C=C\CCCCCCCC(=O)OCC(O)COP(=O)(O)OC1C(O)C(O)C(O)C(O)C1O (stereo not drawn) [1-linoleoylglycerophosphoinositol] — lower, 0.59
- CCCCC/C=C\C/C=C\C/C=C\C/C=C\CCCC(=O)O[C@H](CO)COP(=O)(O)OCCN [2-arachidonoylglycerophosphoethanolamine] — higher, 0.78
- Nc1ncnc2c1ncn2[C@@H]1O[C@H](CO)[C@@H](O)[C@H]1O [adenosine] — higher, 5.63
- TDTEDKGEFLSEGGGV [Fibrinogen cleavage peptide detected in serum] — higher, 1.43
- OC[C@@H](O)[C@@H](O)CO [erythritol] — higher, 0.79
- O=S(=O)(O)Oc1ccccc1O [catechol sulfate] — higher, 0.77
- OC[C@@H](O)[C@H](O)[C@@H](O)CO [xylitol] — higher, 1.62
- NC(=O)NCCC(=O)O [3-ureidopropionate] — the same, 0.64
- OC[C@@H](O)[C@@H](O)[C@H](O)[C@@H](O)CO [sorbitol] — lower, 0.63
- CCCCCC(=O)OC(CC(=O)O)C[N+](C)(C)C.[Cl-] (stereo not drawn) [hexanoylcarnitine] — lower, 0.58
- CCC(O)C(=O)O (stereo not drawn) [2-hydroxybutyrate (AHB)] — the same, 0.64
- O=c1[nH]cc([C@@H]2O[C@H](CO)[C@@H](O)[C@H]2O)c(=O)[nH]1 [pseudouridine] — higher, 0.89
- CCCCCCCCCCCCCC(=O)O [myristate (14:0)] — higher, 0.70
- O=C(O)CCCCCCCCCCCCC(=O)O [tetradecanedioate] — lower, 0.57
- CCCCC/C=C\C/C=C\CCCCCCCC(=O)OCC(O)COP(=O)(O)OCCN (stereo not drawn) [1-linoleoylglycerophosphoethanolamine] — higher, 0.71
- O=C(O)CCCCC(=O)O [adipate] — lower, 0.62
- OC[C@@H](O)[C@@H](O)[C@@H](O)CO [ribitol] — higher, 0.74
- CC(O)CO (stereo not drawn) [1,2-propanediol] — higher, 0.83
- CCCCC/C=C\C/C=C\CCCCCCCC(=O)O [linoleate (18:2n6)] — the same, 0.64
- equol sulfate — higher, 0.70
- eicosenoate — lower, 0.59
- CC/C=C\C/C=C\C/C=C\C/C=C\CCCCC(=O)O [stearidonate (18:4n3)] — higher, 0.66
- CC/C=C\C/C=C\C/C=C\C/C=C\C/C=C\CCCCCC(=O)O [docosapentaenoate (n3 DPA; 22:5n3)] — higher, 0.72
- CCC(C)C(=O)C(=O)O (stereo not drawn) [3-methyl-2-oxovalerate] — higher, 0.67
- CCCCCCCC/C=C\CCCCCCCC(=O)O [oleate (18:1n9)] — lower, 0.56
- CCCCC/C=C\C/C=C\CCCCCCCCCC(=O)O [dihomo-linoleate (20:2n6)] — lower, 0.63
- CCCCCCCCCCCCCCCCC(=O)O [margarate (17:0)] — lower, 0.60
- N[C@@H](CCC(=O)N[C@@H](Cc1c[nH]c2ccccc12)C(=O)O)C(=O)O [gamma-glutamyltryptophan] — higher, 0.77
- suberate (octanedioate) — higher, 0.69
- CCCCCCCCC(=O)O [pelargonate (9:0)] — higher, 0.81
- O=C(O)CCCCCCCCCC(=O)O [undecanedioate] — higher, 0.66
- O=C(O)CC(O)C(=O)O (stereo not drawn) [malate] — higher, 0.69
- CCCCC/C=C\C/C=C\C/C=C\C/C=C\CCCC(=O)OC[C@@H](O)COP(=O)(O)OC1[C@H](O)[C@H](O)C(O)[C@H](O)[C@H]1O (stereo partly drawn) [1-arachidonoylglycerophosphoinositol] — lower, 0.61
- O=C(O)CC(O)(CC(=O)O)C(=O)O [citrate] — higher, 0.80
- O=C1CC[C@@H](C(=O)O)N1 [5-oxoproline] — higher, 0.80
- CCC(N)C(=O)O (stereo not drawn) [2-aminobutyrate] — higher, 0.76
- CC(C)CC(=O)O[C@H](CC(=O)[O-])C[N+](C)(C)C [isovalerylcarnitine] — higher, 0.76
- 1-palmitoylplasmenylethanolamine — higher, 0.72
- linolenate [alpha or gamma; (18:3n3 or 6)] — lower, 0.62
- Nc1nc2c(ncn2[C@@H]2O[C@H](COP(=O)(O)O)[C@@H](O)[C@H]2O)c(=O)[nH]1 [guanosine 5′-monophosphate (5′-GMP)] — higher, 5.74
- CCCCC/C=C\C/C=C\C/C=C\C/C=C\CCCC(=O)OC[C@@H](O)COP(=O)(O)OCCN [1-arachidonoylglycerophosphoethanolamine] — higher, 0.76
- CC(O)CC(=O)O (stereo not drawn) [3-hydroxybutyrate (BHBA)] — higher, 0.66
- NC(=O)c1cccnc1 [nicotinamide] — higher, 0.79
- CC(C)CC(=O)C(=O)O [4-methyl-2-oxopentaoate, 4-methyl-2-oxopentanoate] — lower, 0.63

Counter-ions that a name gives are not always drawn.
